Anti-infective test results gathered from many reports (values: NIAID ChemDB through PubChem).

Common to all: enzyme or target tests; organism: HIV-1; target: Reverse transcriptase; measure: Ki

Neighbouring rows are from separate reports.

Nc1ccn([C@H]2CC[C@@H](COP(=O)(O)OP(=O)(O)OP(=O)(O)O)O2)c(=O)n1 ; result: 0.8 µM
C[C@@H](NC(=S)Nc1ccc(Cl)cn1)c1cccc2ccccc12 ; result: 0.01 µM
O=C1c2ccncc2C(=O)N1CCNC(=S)Nc1ccc(Br)cn1 ; mutations: RT-Y188L ; method: nucleotide incorporation ; result: >5 µM
O=c1[nH]c(=O)n([C@H]2C[C@H](O)[C@@H](COP(=O)(O)OP(=O)(O)OP(=O)(O)O)O2)cc1CCCl ; strain or isolate: IIIB ; method: nucleotide incorporation ; result: 1.2 µM
O=c1c2cccn2c2cccc(F)c2n1CCNC(=S)Nc1ccc(Br)cn1 ; mutations: RT-L100I ; method: nucleotide incorporation ; result: 0.17 µM
Cc1ccc(CCNC(=S)Nc2ccc(Br)cn2)cc1 ; method: nucleotide incorporation ; result: 0.25 µM
Oc1ccc(CCNC(=S)Nc2ccc(Br)cn2)cc1 ; method: scintillation proximity ; result: 104 µM
COc1ccc(/C=C/NC(=O)Nc2ccc(Cl)cn2)cc1OC ; method: nucleotide incorporation ; result: 7 µM
C[C@H](NC(=S)Nc1nc2ccccc2s1)c1cccc2ccccc12 ; result: >100 µM
Cc1cn([C@H]2C=C[C@@H](COP(=O)(O)OP(=O)(O)OP(=O)(O)O)O2)c(=O)[nH]c1=O ; strain or isolate: LAV ; result: 0.012 µM
O=c1c2cccn2c2ccccc2n1CCNC(=S)Nc1ccc(Cl)cn1 ; method: nucleotide incorporation ; result: 0.1 µM
Cc1cn([C@H]2CC[C@@H](COP(=O)(O)OP(=O)(O)OP(=O)(O)O)O2)c(=O)[nH]c1=O ; result: 3.2 µM
O=[N+]([O-])c1ccc(CCNC(=S)Nc2ccc(Br)cn2)cc1 ; method: scintillation proximity ; result: 84 µM
C/C=C/c1cn([C@@H]2O[C@H](COP(=O)(O)OP(=O)(O)OP(=O)(O)O)[C@@H](O)[C@@H]2O)c(=O)[nH]c1=O ; strain or isolate: IIIB ; method: nucleotide incorporation ; result: 0.08 µM
S=C(NCCc1ccc(Cl)cc1)Nc1ccc(Br)cn1 ; method: scintillation proximity ; result: 4.7 µM
Cc1c(C(C)c2c(F)cccc2F)nc(N(C)C)[nH]c1=O ; mutations: RT-K103N ; method: nucleotide incorporation / radiometric ; result: 0.7 µM
O=P(O)(O)OP(=O)(O)O ; mutations: RT-Q161L ; result: 2500 µM
Cc1cn([C@H]2C[C@H](N=[N+]=[N-])[C@@H](COP(=O)(O)OP(=O)(O)C(F)(F)P(=O)(O)O)O2)c(=O)[nH]c1=O ; method: fluorescence ; result: 0.041 µM
O=c1c(O)c(-c2ccc(O)c(O)c2)oc2cc(O)c(O)c(O)c12 ; method: nucleotide incorporation ; result: 0.46 µM
C[C@H](NC(=S)Nc1ccc(Cl)cn1)c1cccc2ccccc12 ; result: >100 µM
O=C(O)Cn1cnc2c(=O)[nH]c(NC(=O)OCc3ccccc3)nc21 ; strain or isolate: NNRTI-resistant ; mutations: Y181I ; method: nucleotide incorporation / radiometric ; result: 12 µM
Cc1cc(C)cc(C(=O)c2cc(Cl)ccc2OCCN2C(=O)NC(=O)C(C)C2C)c1 ; mutations: K103N ; method: RT activity ; conditions: pseudotyped ; result: 4.7 µM
Cc1cn([C@@H]2CC[C@H](COP(=O)(O)OP(=O)(O)OP(=O)(O)O)O2)c(=O)[nH]c1=O ; result: 110 µM
Cc1cn([C@H]2C[C@H](N=[N+]=[N-])[C@@H](COP(=O)(O)OP(=O)(O)OP(=O)(O)O)O2)c(=O)nc1N ; method: nucleotide incorporation ; result: 0.0093 µM
COc1ccc(CCNC(=S)Nc2ccc(Br)cn2)cc1 ; method: nucleotide incorporation ; result: 1.2 µM
Nc1ccn([C@@H]2CS[C@H](COP(=O)(O)OP(=O)(O)OP(=O)(O)O)O2)c(=O)n1 ; mutations: RT-P157S ; result: 2.3 µM
CCCc1cn([C@H]2C[C@H](O)[C@@H](COP(=O)(O)OP(=O)(O)OP(=O)(O)O)O2)c(=O)[nH]c1=O ; strain or isolate: IIIB ; method: nucleotide incorporation ; result: 0.43 µM
C[C@@H](CNC(=S)Nc1ccc(Cl)cn1)C1CCCCC1 ; result: 1.2 µM
Fc1ccc(CCNC(=S)Nc2ccc(Br)cn2)cc1 ; method: nucleotide incorporation ; result: 7.8 µM
O=c1c2cccn2ccn1CCNC(=S)Nc1ccc(Br)cn1 ; mutations: RT-V106A ; method: nucleotide incorporation ; result: 0.095 µM
O=C(O)c1c[nH]c2ccc(Cl)cc2c1=O ; method: nucleotide incorporation / radiometric ; result: 5 µM
Nc1ncnc2c1ncn2[C@@H]1O[C@H](COP(=O)(O)OP(=O)(O)OP(=O)(O)O)C[C@@H]1F ; mutations: RT-A62V V75I F77L F116Y Q151M ; method: nucleotide incorporation / radiometric ; result: 14 µM
O=C(O)Cn1cnc2c(Oc3ccccc3[N+](=O)[O-])nc(NC(=O)OCc3ccccc3)nc21 ; strain or isolate: WT ; method: nucleotide incorporation / radiometric ; result: 3 µM
Cc1cn([C@H]2CC[C@@H](COP(=O)(O)OP(=O)(O)OP(=O)(O)O)O2)c(=O)[nH]c1=O ; mutations: RT-Y181I ; method: RT activity ; result: 0.07 µM
Nc1nc(=O)n([C@@H]2CC[C@H](COP(=O)(O)OP(=O)(O)OP(=O)(O)O)O2)cc1F ; mutations: RT-A62V V75I F77L F116Y Q151M ; method: nucleotide incorporation / radiometric ; result: 4.6 µM
CCOCn1c(Cc2ccccc2)c(C(C)C)c(=O)[nH]c1=O ; strain or isolate: IIIB ; mutations: RT-P225H ; method: RT activity ; result: 0.73 µM
Nc1nc(N)c2ncn([C@H]3CO[C@@H](COP(=O)(O)OP(=O)(O)OP(=O)(O)O)O3)c2n1 ; result: 250 µM
Nc1ccn([C@@H]2CS[C@H](COP(=O)(O)OP(=O)(O)OP(=O)(O)O)O2)c(=O)n1 ; mutations: RT-M184V ; method: nucleotide incorporation / radiometric ; result: 93 µM
O=c1c2cccn2c2ccccc2n1CCNC(=S)Nc1ccc(Br)cn1 ; mutations: RT-V106A ; method: nucleotide incorporation ; result: 0.112 µM
CSCSc1nc(Cc2cc(C)cc(C)c2)c(C(C)C)c(=O)[nH]1 ; strain or isolate: IIIB ; result: 0.06 µM
Cc1cn([C@H]2C=C[C@@H](COP(=O)(O)OP(=O)(O)OP(=O)(O)O)O2)c(=O)[nH]c1=O ; mutations: RT-M184V ; result: 200 µM
Cc1cc(C)cc(C(=O)c2cc(Cl)ccc2OCCN2CCC(=O)NC2=O)c1 ; mutations: Y181C ; method: RT activity ; conditions: pseudotyped ; result: 8 µM
COc1ccc2c(c1)N(C(=O)OC(C)C)[C@@H](CSC)C(=S)N2 ; strain or isolate: IIIB ; mutations: RT-V106A ; method: RT activity ; result: 0.028 µM